Potato spindle tuber viroid, loop 15: variant abundance in plants

PSTVd intermediate strain, loop 15: wild type GGAAACCGCUACUAC, pool pattern GGAAACCGNNNNNNC; upper and lower strand joined, each 5' to 3', the first 7 letters being the upper strand, closing pairs included.

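A pool of all variants was put on leaves of three Nicotiana benthamiana plants. Progeny were sequenced from the inoculated region (day 5), the margin of the inoculated leaf (day 10) and systemic leaves (day 12).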

Values are reads per thousand in the sample; higher means more abundant, 0 means not found. Each site shows the three plants. "Pool" is the share in the plasmid pool used as inoculum, on the same scale. The inoculated region was read from the minus strand, the other sites from the plus strand. IR is the inoculated region, LM the leaf margin, Sys the systemic leaves. For reference, wild type rose from 33.9 per thousand in the pool to 202, 200, 159 (inoculated region), 724, 746, 710 (leaf margin) and 856, 883, 880 (systemic leaves).

{"sequence": "GGAAACCGACGUAAC", "pool": "0.192", "IR": "0.0655 0.145 0.171", "LM": "0 0 0", "Sys": "0 0 0"}
{"sequence": "GGAAACCGACGUACC", "pool": "0.256", "IR": "0.180 0.257 0.248", "LM": "0 0 0", "Sys": "0 0 0"}
{"sequence": "GGAAACCGACGUAGC", "pool": "0.240", "IR": "0.115 0.0964 0.0762", "LM": "0 0 0", "Sys": "0 0 0"}
{"sequence": "GGAAACCGACGUAUC", "pool": "0.240", "IR": "0.131 0.193 0.114", "LM": "0.0162 0.0223 0.0200", "Sys": "0 0 0"}
{"sequence": "GGAAACCGACGUCAC", "pool": "0.336", "IR": "0.147 0.0803 0.0381", "LM": "0 0 0", "Sys": "0 0 0"}
{"sequence": "GGAAACCGACGUCCC", "pool": "0.272", "IR": "0.0655 0.0161 0.0952", "LM": "0 0.0223 0.0401", "Sys": "0.0161 0 0"}
{"sequence": "GGAAACCGACGUCGC", "pool": "0.288", "IR": "0.0655 0.0643 0.114", "LM": "0.0162 0 0", "Sys": "0 0 0"}
{"sequence": "GGAAACCGACGUCUC", "pool": "0.160", "IR": "0.115 0.0643 0.171", "LM": "0 0 0", "Sys": "0 0 0"}
{"sequence": "GGAAACCGACGUGAC", "pool": "0.224", "IR": "0.0655 0.193 0.0762", "LM": "0 0 0", "Sys": "0 0 0"}
{"sequence": "GGAAACCGACGUGCC", "pool": "0.176", "IR": "0.0655 0.0643 0.0571", "LM": "0.0162 0 0", "Sys": "0.0161 0 0"}
{"sequence": "GGAAACCGACGUGGC", "pool": "0.304", "IR": "0.180 0.305 0.171", "LM": "0 0 0", "Sys": "0.0161 0 0"}
{"sequence": "GGAAACCGACGUGUC", "pool": "0.304", "IR": "0.147 0.161 0.114", "LM": "0 0 0", "Sys": "0 0 0"}
{"sequence": "GGAAACCGACGUUAC", "pool": "0.192", "IR": "0.311 0.225 0.209", "LM": "0.0808 0.0445 0.140", "Sys": "0.0161 0 0"}
{"sequence": "GGAAACCGACGUUCC", "pool": "0.160", "IR": "0.0491 0.0482 0.0571", "LM": "0 0 0", "Sys": "0 0 0"}
{"sequence": "GGAAACCGACGUUGC", "pool": "0.288", "IR": "0.115 0.209 0.114", "LM": "0 0 0.0200", "Sys": "0 0 0"}
{"sequence": "GGAAACCGACGUUUC", "pool": "0.272", "IR": "0.0655 0.112 0.0762", "LM": "0 0.0223 0.0401", "Sys": "0 0 0"}
{"sequence": "GGAAACCGACUAAAC", "pool": "0.304", "IR": "0.0819 0.145 0.0571", "LM": "0 0.0445 0", "Sys": "0 0 0"}
{"sequence": "GGAAACCGACUAACC", "pool": "0.176", "IR": "0.115 0.0803 0.152", "LM": "0 0 0.0200", "Sys": "0 0 0"}
{"sequence": "GGAAACCGACUAAGC", "pool": "0.224", "IR": "0.0491 0.0161 0.0762", "LM": "0.0162 0 0", "Sys": "0.0161 0 0"}
{"sequence": "GGAAACCGACUAAUC", "pool": "0.256", "IR": "0.0983 0.0643 0.0571", "LM": "0 0 0.0401", "Sys": "0 0 0"}
{"sequence": "GGAAACCGACUACAC", "pool": "0.224", "IR": "0.0491 0.145 0.0952", "LM": "0 0.0668 0", "Sys": "0 0 0"}
{"sequence": "GGAAACCGACUACCC", "pool": "0.192", "IR": "0.115 0.0643 0.0762", "LM": "0 0 0.0401", "Sys": "0 0 0"}
{"sequence": "GGAAACCGACUACGC", "pool": "0.176", "IR": "0.0491 0.0321 0.152", "LM": "0.0162 0 0.0601", "Sys": "0 0 0"}
{"sequence": "GGAAACCGACUACUC", "pool": "0.192", "IR": "0.0983 0.129 0.133", "LM": "0.0162 0 0.0200", "Sys": "0 0 0.0228"}
{"sequence": "GGAAACCGACUAGAC", "pool": "0.256", "IR": "0.0819 0.112 0.152", "LM": "0 0 0", "Sys": "0 0 0"}
{"sequence": "GGAAACCGACUAGCC", "pool": "0.192", "IR": "0.115 0.145 0.0381", "LM": "0 0 0", "Sys": "0.0161 0 0"}
{"sequence": "GGAAACCGACUAGGC", "pool": "0.256", "IR": "0.0164 0.0964 0.0952", "LM": "0 0 0", "Sys": "0 0 0"}
{"sequence": "GGAAACCGACUAGUC", "pool": "0.304", "IR": "0.164 0.241 0.171", "LM": "0 0.0445 0.0200", "Sys": "0 0 0"}
{"sequence": "GGAAACCGACUAUAC", "pool": "0.224", "IR": "0.229 0.193 0.286", "LM": "0.113 0.0668 0.0801", "Sys": "0 0 0"}
{"sequence": "GGAAACCGACUAUCC", "pool": "0.192", "IR": "0.0655 0.0643 0.0952", "LM": "0 0 0.0200", "Sys": "0 0 0"}
{"sequence": "GGAAACCGACUAUGC", "pool": "0.224", "IR": "0.131 0.0803 0.0762", "LM": "0 0 0", "Sys": "0 0 0"}
{"sequence": "GGAAACCGACUAUUC", "pool": "0.144", "IR": "0.131 0.161 0.133", "LM": "0 0.0445 0", "Sys": "0 0 0"}

Sequences that differ at fixed positions probably stem from PCR or sequencing errors, and defective variants can be carried along by functional ones. Samples held 43,870 to 66,106 reads, so the smallest values rest on one or two reads.

Values reported by Wu et al. 2024 (doi:10.1371/journal.ppat.1012142).